A mixed list of measured activities; the numbers were collected in NIAID ChemDB.

All rows: tests in culture; species: HIV-1

Fold resistance: result on the changed form divided by that on wild type.

smiles	strain	mutations	cell line	read by	setting	read-out	tested at	value
O=C(O)P(=O)(O)O	IIIB		PBL	RT activity	21 d	inhibition	32 µM	72%
C#C[C@]1(CO)O[C@@H](n2cnc3c(N)nc(F)nc32)C[C@@H]1O	Clinical isolate	C162Y/M184I	MT4-GFP	fluorescence		EC50		0.00387 µM
Cc1cn([C@H]2C[C@H](N=[N+]=[N-])[C@@H](CO)O2)c(=O)[nH]c1=O	NL-XM WT		PBMC	p24		EC90		0.12 µM
CC(=O)N1CCC(C(=O)N(CCCN2CCC(Cc3ccc(C(N)=O)cc3)CC2)c2ccc(C)c(Cl)c2)CC1	R5 subtype B_6 recombinant		U87 (CD4+ CCR5+) + U87	luciferase		EC50		0.007 µM
O=c1[nH]cnc2c1ncn2[C@H]1CC[C@@H](CO)O1	JF18(RT-D67N T215Y)	RT-D67N T215Y	HELA-CD4+	plaque count		fold resistance		1.35
O=C(CSc1nnnn1-c1cccc2ccccc12)Nc1ccccc1F			MT-4	p24		EC95		<10 µM
Cc1cn([C@H]2C[C@H](N=[N+]=[N-])[C@@H](CO)O2)c(=O)[nH]c1=O	NRTI resistant	RT-K65R K70R V75I F77L F116Y Q151M	HeLa	luciferase		EC50		>0.0164 µM
S=C(NCCc1cccs1)Nc1ccc(Br)cn1	M709-1 Clinical isolate NRTI-resistant	RT-M41L L210W T215Y	HT4 + HeLa	plaque count		EC50		0.01 µM
CCOc1ccc(Cc2cc(C3CCN(C[C@H]4CN([C@@H](C(=O)O)[C@@H](C)CC)C[C@@H]4c4cccc(F)c4)CC3)n(CC)n2)cc1F	BaL		HeLa	β-galactosidase		EC90		<0.00014 µM
N#Cc1cc2[nH]c3ccccc3c2n(-c2ccc([N+](=O)[O-])cc2)c1=O	NNRTI-resistant	RT-K103N Y181C	HeLa	luciferase		EC50		0.34 µM
Cc1cc(S(N)(=O)=O)ccc1NC(=O)COc1ccc(Cl)cc1C(=O)c1cc(Cl)cc(C#N)c1	NNRTI-resistant (RT V108I Y181C)	RT-V108I Y181C	MAGI	β-galactosidase		fold resistance		1.7
CCc1cc(NCc2nc3ccccc3o2)c(=O)[nH]c1C	IIIB		H9	p24		EC95		0.9 µM
O=C1N(Cc2ccc(CO)cc2)[C@H](Cc2ccccc2)[C@H](O)[C@@H](O)[C@@H](Cc2ccccc2)N1Cc1ccc(CO)cc1	NL4-3	PR-M46I	MT-4	p24		EC95		0.2 µM
O=c1[nH]cnc2c1ncn2C1CC[C@@H](CO)O1		A62V V75I F77L F116Y Q151M	Primary T lymphocytes	p24 / ELISA		EC90		83.5 µM
Cc1cn([C@H]2C[C@H](N=[N+]=[N-])[C@@H](COP(=O)(O)OC[C@H]3OC(O)[C@H](O)[C@@H](O)[C@@H]3O)O2)c(=O)[nH]c1=O	LAV-Bru		CEM	RT activity	7 d	inhibition	0.2 µM	92%
CCn1nc(Cc2cc(C(F)(F)F)cc(C(F)(F)F)c2)cc1C1CCN(C[C@H]2CN([C@@H](C(=O)O)C(C)(C)C)C[C@@H]2c2cccc(F)c2)CC1	BaL		HeLa	β-galactosidase		EC90		0.011 µM
Cc1cn([C@H]2C[C@H](N=[N+]=[N-])[C@@H](COP(=O)(O)OC[C@H]3OC(O)[C@@H](O)[C@@H](O)[C@@H]3O)O2)c(=O)[nH]c1=O	LAV-Bru		U-937	RT activity	14 d	inhibition	5 µM	0%
Cc1cc(C)c(-n2nnnc2SCC(=O)Nc2sccc2C#N)c(C)c1			MT-4	p24		EC95		<10 µM
O=c1[nH]cnc2c1ncn2[C@H]1CC[C@@H](CO)O1	XM-Q151M	RT-A62V V75I F77C F116Y Q151M	MT-4	p24		EC90		54 µM
C/C(=C(/CCO)SS/C(CCO)=C(\C)N(C=O)Cc1cnc(C)nc1N)N(C=O)Cc1cnc(C)nc1N	RF		U-937/HIV-1(RF) + U-937	p24		inhibition	125 µM	0%
O=S(=O)(O)c1cc(N=C=S)ccc1/C=C/c1ccc(N=C=S)cc1S(=O)(=O)O	RF		C8166	p24		inhibition	50 µg/mL	67%
CCn1nc(Cc2ccc(F)cc2F)cc1C1CCN(C[C@H]2CN([C@@H](C(=O)O)C(C)C)C[C@@H]2c2cccc(F)c2)CC1	BaL		HeLa	β-galactosidase	50% human serum	EC90		>0.3 µM
Cc1ccc(S(=O)(=O)N(CC(C)C)C[C@@H](O)[C@H](Cc2ccccc2)NC(=O)O[C@H]2CO[C@H]3OCC[C@H]32)cc1	IIIB	R41K	MT-2	p24 / ELISA		fold resistance		1.7
O=C(CSc1nnnn1-c1ccc2c(c1)OCO2)Nc1ccccc1Cl			MT-4	p24		EC95		<10 µM
CCn1nc(Cc2ccc(OC(F)F)cc2)cc1C1CCN(C[C@H]2CN([C@@H](C(=O)O)C(C)(C)C)C[C@@H]2c2cccc(F)c2)CC1	BaL		HeLa	β-galactosidase		EC90		<0.00014 µM
Cc1ccnc2c1NC(=O)c1cccnc1N2C1CC1		RT-K70R K101E	MT-4			EC95		>3 µM
CCN(c1nc(F)ccc1NC(C)(C)C)C1CCN(C(=O)c2cc3cc(NC(=O)N4CCN(C)CC4)ccc3[nH]2)CC1	IIIB	K112M K113E V128I M200I H219P I401T R409K D437N L441P R41K	MT-2	p24 / ELISA		fold resistance		3.4
CC[C@H](C)[C@H](C(=O)O)N1C[C@H](CN2CCC(c3cc(Cc4cccc(C#N)c4)nn3CC)CC2)[C@@H](c2cccc(F)c2)C1	BaL		HeLa	β-galactosidase	50% human serum	EC90		0.011 µM
Cc1cn([C@H]2C[C@H](N=[N+]=[N-])[C@@H](CO)O2)c(=O)[nH]c1=O	LAV-Bru		CEM	RT activity	26 d	inhibition	1 µM	20%
COCCNC(=O)[C@@H](NC(=O)[C@H](Cc1ccc(OC)c(OC)c1OC)C[C@H](O)[C@H](Cc1ccccc1)NC(=O)OC(C)(C)C)C(C)C			PBL			EC99		0.06 µM
CC(C)(C)NC(=O)[C@@H]1C[C@@H]2CCCC[C@@H]2CN1C[C@@H](O)[C@H](Cc1ccccc1)NC(=O)[C@H](CC(N)=O)NC(=O)c1ccc2ccccc2n1	NL4-3-P22 (PR D30N A71V)	PR-D30N A71V	MT-4	p24		EC90		0.01 µM
CCn1nc(Cc2cc(C(F)(F)F)cc(C(F)(F)F)c2)cc1C1CCN(C[C@H]2CN([C@@H](C(=O)O)C(C)C)C[C@@H]2c2cccc(F)c2)CC1	BaL		HeLa	β-galactosidase		EC90		0.1 µM
Cc1cc(C)c(-n2nnnc2SCC(=O)Nc2ccc(S(=O)(=O)Nc3nc(C)c(C)o3)cc2)c(C)c1			MT-4	p24		EC95		<10 µM
CC[C@H](C)[C@H](C(=O)O)N1C[C@H](CN2CCC(c3cc(Cc4ccc(OC(C)C)cc4)nn3CC)CC2)[C@@H](c2cccc(F)c2)C1	BaL		HeLa	β-galactosidase		EC90		<0.00014 µM
CCc1cc(NCc2nc3c(Cl)ccc(Cl)c3o2)c(=O)[nH]c1C	IIIB		H9	p24		EC95		0.2 µM
Cn1c2ccccc2c2c1cc(C#N)c(=O)n2-c1ccc([N+](=O)[O-])cc1	NRTI resistant	RT-M41L E44D D67N T69D V118I L210W T215Y	HeLa	luciferase		fold resistance		0.7
c1cc(CN2CCCNCCNCCCNCC2)ccc1CN1CCCNCCNCCCNCC1	SW30 CLADE C R5X4		PBMC	p24		inhibition	0.5 µM	85%
Cc1cn([C@H]2C[C@H](N=[N+]=[N-])[C@@H](CO)O2)c(=O)[nH]c1=O	IIIB	K112M K113E V128I M200I H219P I401T R409K D437N L441P	MT-2	p24 / ELISA		fold resistance		0.5
Nc1nc(=O)n([C@@H]2CS[C@H](CO)O2)cc1F		4xAZT	Primary T lymphocytes	p24 / ELISA		EC90		1.2 µM
CC(C)(C)NC(=O)[C@@H]1C[C@@H]2CCCC[C@@H]2CN1C[C@@H](O)[C@H](Cc1ccccc1)NC(=O)[C@H](CC(N)=O)NC(=O)c1ccc2ccccc2n1	NL4-3	PR-L10R L63P V82T I84V	MT-4	p24		EC95		0.1 µM
O=C1Nc2ccc(Cl)cc2[C@@](C#CC2CC2)(C(F)(F)F)O1	LAI		Primary T lymphocytes	p24 / ELISA		EC90		0.2 µM
CC(C)=CCN1Cc2cc(Cl)cc3[nH]c(=S)n(c23)C[C@@H]1C	RTMC	RT-D67N K70R T215Y K219Q	HT4 + HT4 LacZ-1	plaque count		EC50		0.14 µM

Inhibition is in % at the dose shown (toxicity tests: loss of growth or viability). Lines come from different laboratories, so protocols vary. Blank or dashed fields: not listed here. ECn is the concentration giving n% inhibition of infection, replication or growth.